Results deposited as PubChem BioAssay AID504761 (Drosophila RNAi Screening Center, 2011).

- Purpose: 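Insect host genes that dengue virus relies on to spread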 (primary screen)
- System: D.Mel-2 cells from Drosophila
- Knock-down reagent: long dsRNA against Drosophila genes
- Treatment: infection with dengue virus type 2; dose and infection time not stated
- Measured: 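Cells stained for dengue envelope protein and imaged; percent of infected cells per well on duplicate plates, ranked by infection, with stained nuclei counted for cell number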
- Scale: infection score: higher = more virus-infected cells; cell count: higher = more cells in the well
- Rule for the call: 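Very low infection ranking in both replicate wells (chance probability at most 0.065), then a retest showing infection dropped 1.5-fold or more at p below 0.05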
- Calls: active = confirmed: knock-down lowers infection; inactive = not picked or not confirmed
In all, the deposit lists about 22,000 reagents; this is an unselected part of those that have a named target and a result. Over the whole deposit, 116 (0.52%) were called active. 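Calls depend on retest data that are not deposited; infection was ranked per plate without normalising between plates; the unit of the infection score is not given.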 Raw values vary from plate to plate and are shown uncorrected. Entries without a mark were called inactive. Not given: the amount of reagent, the time to read-out.

CG12560 [DRSC02174]: infection score, replicate 2 = 6.47; cell count, replicate 1 = 584; cell count, replicate 2 = 6595
Ddx1 [DRSC11862]: infection score, replicate 1 = 5.92; infection score, replicate 2 = 6.65; cell count, replicate 1 = 5640; cell count, replicate 2 = 7114
CG15256 [DRSC01940]: infection score, replicate 1 = 1.73; infection score, replicate 2 = 2.35; cell count, replicate 1 = 6522; cell count, replicate 2 = 6974
corto [DRSC22988]: infection score, replicate 1 = 1.23; infection score, replicate 2 = 5.12; cell count, replicate 1 = 5771; cell count, replicate 2 = 644
corto [DRSC25778]: infection score, replicate 1 = 1.08; infection score, replicate 2 = 1.37; cell count, replicate 1 = 6489; cell count, replicate 2 = 6446
amrt [DRSC19378]: infection score, replicate 1 = 2.3; infection score, replicate 2 = 3.31; cell count, replicate 1 = 6488; cell count, replicate 2 = 6646
amrt [DRSC26943]: infection score, replicate 1 = 3.65; infection score, replicate 2 = 9.06; cell count, replicate 1 = 6248; cell count, replicate 2 = 6578

Part of the list above, showing only “infection score, replicate 2”:
Ddx1 [DRSC11862]	6.65
CG15256 [DRSC01940]	2.35

Additional records follow.
Pgls [DRSC19769]: infection score, replicate 1 = 1.54; infection score, replicate 2 = 1.88; cell count, replicate 1 = 6547; cell count, replicate 2 = 6502
CG16964 [DRSC02546]: infection score, replicate 1 = 3.49; infection score, replicate 2 = 6.33; cell count, replicate 1 = 6337; cell count, replicate 2 = 6418
CG16964 [DRSC26799]: infection score, replicate 1 = 13.5; infection score, replicate 2 = 5.75; cell count, replicate 1 = 6314; cell count, replicate 2 = 6451
Serinc [DRSC11296]: infection score, replicate 1 = 7.83; infection score, replicate 2 = 16.4; cell count, replicate 1 = 6701; cell count, replicate 2 = 5541
sinah [DRSC09910]: infection score, replicate 1 = 3.56; infection score, replicate 2 = 12.3; cell count, replicate 1 = 6851; cell count, replicate 2 = 6359
sinah [DRSC22181]: infection score, replicate 1 = 2.74; infection score, replicate 2 = 3.15; cell count, replicate 1 = 6428; cell count, replicate 2 = 5994
